Pooled drug test results. Numbers come from NIAID ChemDB, via PubChem.

All rows: growth or infection tests; agent: HIV-1; endpoint: EC90

ECn is the concentration giving n% inhibition of infection, replication or growth.

| SMILES | changes | strain or isolate | cells | result |
|---|---|---|---|---|
| O=C1Nc2ccc(F)c(F)c2[C@@](/C=C/C2CC2)(C(F)(F)F)N1 | RT-Y188L |  |  | ~0.115 µM |
| CC(C)(C)OC(=O)N1[C@H](CO)CC(F)(F)[C@@H]1n1cnc2c(N)ncnc21 |  | LAI | PBMC | >100 µM |
| O=C(CN1c2c(-c3ccccc3)n[nH]c2-c2ccccc2S1(=O)=O)N/N=C/c1ccc([N+](=O)[O-])cc1 |  |  | PBMC | >100 µM |
| O=C1Nc2ccc(Cl)cc2[C@@](/C=C/C2CC2)(C(F)(F)F)N1 |  |  |  | 0.002 µM |
| CC(C)(C)OC(=O)N1[C@H](CO)CC(F)(F)[C@@H]1n1cnc2ncnc(Cl)c21 |  | LAI | PBMC | >100 µM |
| CCN(CC)c1ccc(/C=N/NC(=O)CN2c3c(-c4ccccc4)n[nH]c3-c3ccccc3S2(=O)=O)cc1 |  |  | PBMC | 61.4 µM |
| CC(C)C1(C#CC2CC2)NS(=O)(=O)Nc2ccc(Cl)cc21 |  | RF | MT-2 | 0.677 µM |
| O=C1Nc2ccc(Cl)cc2C(C#Cc2ccsc2)(C(F)(F)F)O1 | RT-K103N |  |  | 0.3219 µM |
| O=C(CN1c2c(-c3ccccc3)n[nH]c2-c2ccccc2S1(=O)=O)N/N=C/c1ccccc1F |  |  | PBMC | >100 µM |
| CNc1n[nH]c2ccc(CN3C(=O)N(Cc4ccc5[nH]nc(NC)c5c4)[C@H](Cc4ccccc4)[C@H](O)[C@@H](O)[C@H]3Cc3ccccc3)cc12 |  | RF | MT-2 | 0.0279 µM |
| O=C(CN1c2c(-c3ccccc3)n[nH]c2-c2ccccc2S1(=O)=O)N/N=C/c1cccc(Cl)c1 |  |  | PBMC | 43.4 µM |
| CCC#CC1(C(C)C)NS(=O)(=O)Nc2ccc(Cl)cc21 |  | RF | MT-2 | 0.691 µM |
| CC(C)(C)OC(=O)N1[C@H](CO)CC(F)(F)[C@H]1n1cnc2ncnc(Cl)c21 |  | LAI | PBMC | >100 µM |
| Nc1n[nH]c2ccc(CN3C(=O)N(CC4CCC4)[C@H](Cc4ccccc4)[C@H](O)[C@@H](O)[C@H]3Cc3ccccc3)cc12 | PR-S184V | RF | MT-2 | 0.53 µM |
| O=C1Nc2ccc(Cl)cc2[C@@](C#CC2CC2)(C(F)(F)F)N1 |  | RF | MT-2 | 0.002 µM |
| O=C(CN1c2c(-c3ccccc3)n[nH]c2-c2ccccc2S1(=O)=O)N/N=C/c1ccc(Br)cc1 |  |  | PBMC | 13.4 µM |
| CCOC1(C(F)(F)F)OC(=O)Nc2ccc(Cl)cc21 | RT-K103N |  |  | 0.1392 µM |
| CC(C)(C)OC(=O)N1[C@H](CO)CC(F)(F)[C@H]1n1ccc(=O)[nH]c1=O |  | LAI | PBMC | >100 µM |
| CCCCC#CC1(C(F)(F)F)OC(=O)Nc2cccc(F)c21 |  | RF | MT-2 | 0.00564 µM |
| CCCOC1(C(F)(F)F)OC(=O)Nc2ccc(Cl)cc21 | RT-K103N |  |  | 0.064 µM |
| O=C(CN1c2c(-c3ccccc3)n[nH]c2-c2ccccc2S1(=O)=O)N/N=C/c1cccc(Br)c1 |  |  | PBMC | 35.9 µM |
| O=C1Nc2ccc(F)c(F)c2C(C#Cc2ccccn2)(C(F)(F)F)O1 | RT-K103N |  |  | 0.193 µM |
| COc1ccc(/C=N/NC(=O)CN2c3c(-c4ccccc4)n[nH]c3-c3ccccc3S2(=O)=O)c(OC)c1 |  |  | PBMC | 80.6 µM |
| CCCCCCN1C(=O)N(Cc2ccc3[nH]nc(N)c3c2)[C@H](Cc2ccccc2)[C@H](O)[C@@H](O)[C@H]1Cc1ccccc1 |  | RF | MT-2 | 0.756 µM |
| O=C1Nc2ccc(F)c(F)c2C(C#Cc2ccsc2)(C(F)(F)F)O1 | RT-K103N |  |  | 0.1559 µM |
| CCCCC#CC1(C(F)(F)F)OC(=O)Nc2ccc(N)cc21 |  | RF | MT-2 | 0.03353 µM |
| O=C1Nc2ccc(F)cc2C(C#Cc2ccco2)(C(F)(F)F)O1 | RT-K103N |  |  | 0.3293 µM |
| CCc1cn([C@@H]2O[C@H](CO)[C@@H](O)[C@@]2(C)F)c2ncnc(N)c12 |  |  | PBMC | >100 µM |
| O=C1Nc2ccc(F)c(F)c2[C@@](C#CC2CC2)(C(F)(F)F)N1 |  | RF | MT-2 | 0.0013 µM |
| COc1ccc(/C=N/NC(=O)CN2c3c(-c4ccccc4)n[nH]c3-c3ccccc3S2(=O)=O)cc1 |  |  | PBMC | 81 µM |
| O=C1Nc2ccc(Cl)cc2C(C#Cc2ccncc2)(C(F)(F)F)O1 | RT-K103N |  |  | 0.1446 µM |
| COC(=O)/C=C/c1cn([C@@H]2O[C@H](CO)[C@@H](O)[C@@]2(C)F)c2ncnc(N)c12 |  |  | PBMC | >100 µM |
| O=C1Nc2ccc(Cl)cc2C(C#Cc2cncs2)(C(F)(F)F)O1 | RT-K103N |  |  | 0.1062 µM |
| CCCCN1C(=O)N(Cc2ccc3c(N)n[nH]c3c2)[C@H](Cc2ccccc2)[C@H](O)[C@@H](O)[C@H]1Cc1ccccc1 |  | RF | MT-2 | <1 µM |
| C#Cc1cn([C@@H]2O[C@H](CO)[C@@H](O)[C@@]2(C)F)c2nc(N)nc(N)c12 |  |  | PBMC | >100 µM |

For reference, 5 entries again:

SMILES,changes,strain or isolate,cells,result
O=C1Nc2ccc(Cl)cc2[C@@](C#CC2CC2)(C(F)(F)F)N1,,RF,MT-2,0.002 µM
O=C1Nc2ccc(F)c(F)c2C(C#Cc2ccccn2)(C(F)(F)F)O1,RT-K103N,,,0.193 µM
CCC#CC1(C(C)C)NS(=O)(=O)Nc2ccc(Cl)cc21,,RF,MT-2,0.691 µM
CCCCC#CC1(C(F)(F)F)OC(=O)Nc2cccc(F)c21,,RF,MT-2,0.00564 µM
COc1ccc(/C=N/NC(=O)CN2c3c(-c4ccccc4)n[nH]c3-c3ccccc3S2(=O)=O)c(OC)c1,,,PBMC,80.6 µM

Blank or dashed fields: not listed here. Neighbouring rows are from separate reports.